Assay results taken from patent US20230346916A1.

Molecular target: bat ACE2 (bACE2) receptor transiently expressed on 293T cells (bat)

In the case of “SARS-CoV-2 RBD-Fc fusion protein (residues 331-524 of SARS-CoV-2 S protein with a C-terminal Fc of human IgG1)”, the EC50 is reported as 0.08 µg/mL.
